{"source": "ChEMBL document CHEMBL1149649", "about": "“Synthesis and anti-influenza activities of carboxyl alkoxyalkyl esters of 4-guanidino-Neu5Ac2en (zanamivir)” (Bioorg Med Chem Lett, 2007)", "test_system": "Influenza A virus", "assay": "Antiviral activity against influenza A/Jingfang/Fm1 (H1N1) infected in mouse assessed as survival of mouse at 100 mg/kg, ip bid after 2 hrs of viral infection for 5 days", "settings": "route intraperitoneal", "data": [{"smiles": "NC(=O)c1ncn([C@@H]2O[C@H](CO)[C@@H](O)[C@H]2O)n1", "note": "[RIBAVIRIN]", "values": [{"measurement": "Survival", "result": 100, "unit": "%"}]}]}
